Data: article PMC10719079, “The structural basis for deubiquitination by the fingerless USP-type effector TssM” (2023)

Assays:
[1] = target: ubiquitin-PA (ubiquitin^1–75 propargylamide activity-based probe) (UniProt P0CG48)

## TssM^193–490 from Burkholderia pseudomallei (domain or fragment)
NEDD8-PA
  initial velocity of cleavage of NEDD8-AMC (5 nM TssM, 5 μM NEDD8-AMC, 30°C): 3.6 RFU/s
[1]
  initial velocity of cleavage of ubiquitin-AMC (5 nM TssM, 5 μM Ub-AMC, 30°C): 418 RFU/s
